The values are deposited in ChEMBL (CHEMBL3988442, “University of Dundee, Small-Polar-MMV Screening Library” (2021)).

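Phenotypic screen: M. tuberculosis growth, cholesterol and DPPC medium, 4 days; the read-out is not stated. Concentration: 500 µM. Direction is inferred from retests: higher values go with more growth inhibition. Of about 18,000 compounds tested this way, about 900 (5%) reached 50% or more in at least one test.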

The filed quantity is “Percent Effect” (%). The record does not define 0% and 100%; most values in the screen are far below 50% and negative numbers occur (in some assays of this library far below -100). Many other results are left out here, so strong results are more common than in the screen.

With CC(CNS(N)(=O)=O)Cc1cccs1 (configuration not stated) the screen gave 40.79%.
With O=C(CSc1ccc(F)cc1)N1CCC1 the screen gave 60.58%.
With COCC1CCN(C(=O)CCc2cscn2)CC1 the screen gave 33.81%.
With Cc1n[nH]cc1CNCCNc1ncc(Cl)cc1Cl the screen gave 28.29%.
With CC1Cc2ccccc2N1CC(N)=O (configuration not stated) the screen gave 7.969%.
With CCc1nnsc1C(=O)Nc1nnc(C)s1 the screen gave 14.99%.
With CCn1ccc(NC(=O)NCC(C)C)n1 the screen gave 9.708%.
With COCCNC(=O)C1CN(Cc2ccccc2)CCO1 (configuration not stated) the screen gave 32.25%.
With C1COCC(C2CC2)N1 (configuration not stated) the screen gave -16.24%.
With O=C(CCC(F)(F)F)NCCNC1CC1 the screen gave 35.49%.
With CCO[C@H]1CN(Cc2ccccc2C#N)C[C@@H]1O the screen gave 4.033%.
With CC(C)c1cccc(NC(=O)CN)c1 the screen gave 22.67%.
With CN1N=C(c2ccc3c(c2)OCCO3)CCC1=O the screen gave 5.249%.
With NCC(O)c1ccncc1 (configuration not stated) the screen gave 5.59%.
With CC(C)NC(=O)Cn1nnc(-c2cccs2)n1 the screen gave 6.858%.
With Cn1cccc1C1COCCN1CC1OCCO1 (configuration not stated) the screen gave -19.03%.
With COc1cccc(F)c1C(C)N (configuration not stated) the screen gave 10%.
With Cc1cc(N(C)C(=O)C(C)N)ccc1Br (configuration not stated) the screen gave 17.36%.
With CN(CCSc1nnc[nH]1)c1ccccc1 the screen gave 39.63%.
With CC(C)C(=O)NCCCNC(=O)c1ccc(F)cc1O the screen gave 50.74%.
With COc1ncccc1C(=O)N(CC(F)F)C1CC1 the screen gave -6.9%.
With CC(=O)N[C@@H]1CN(Cc2cccc(Br)c2)C[C@H]1CO the screen gave 2.664%.
With CC(OC(=O)c1ccc2c(c1)OCO2)C(=O)NC1CC1 (configuration not stated) the screen gave -1.749%.
With CCOc1cccc(CN(C)S(=O)(=O)c2cccs2)n1 the screen gave 76.27%.
With CC(O)(CNC1CCC2(CC1)OCCO2)c1ccsc1 (configuration not stated) the screen gave -9.485%.
With CC(C)(C)OC(=O)CN(CCCO)Cc1cccnc1 the screen gave 20.43%.
With Cc1cc(C)nc(NC(=O)c2cc[nH]n2)c1 the screen gave 3.952%.
With CN1CCC(NC(=O)c2cc(C(F)(F)F)nn2C)CC1 the screen gave 16.73%.
With CN(C)S(=O)(=O)NCCNc1cccc(Br)c1 the screen gave 73.73%.
With COCCCNCc1ccc2c(c1)OCCO2 the screen gave 5.203%.
With CCCNC(=O)c1cc(C(C)C)on1 the screen gave 66.2%.
With OCCOCCn1cccn1 the screen gave -1.229%.
With CS(=O)(=O)Cc1ccc(NC(=O)N2CCCC2)cc1F the screen gave 4.198%.
With CN(C)c1ccc(CN2CCS(=O)(=O)CC2)cn1 the screen gave 3.19%.
With COc1ncccc1CN(C)C(=O)c1ccccc1F the screen gave 45.11%.
With CC1CC(=O)NCCN1 (configuration not stated) the screen gave 12.51%.
With CS(=O)(=O)C1CCCCNC1 (configuration not stated) the screen gave 19.13%.
With CSc1ccc(NC(=O)CNC(=O)OC(C)(C)C)cn1 the screen gave 44.06%.
With COCCN(C)CC(=O)N1C[C@@H](C)[C@@](C)(O)C1 the screen gave -5.218%.
With NC[C@@H]1OC[C@@H]2COCC[C@@H]21 the screen gave -19.91%.
With COc1ccc2c(c1)CCCN2C(=O)CSC the screen gave 31.38%.
With CCOCC(=O)Nc1cc(C(=O)NC)ccc1C the screen gave 5.378%.
With COCCOCCn1nc(C)c(C#N)c1N the screen gave 75.54%.
With C[C@@H]1CN(C(=O)c2ccns2)C[C@@]1(O)C1CC1 the screen gave 7.946%.
With O=C(CSCCO)Nc1ccccc1F the screen gave 8.167%.
With CCN1CCN(c2ccc(C(C)=O)cc2)CC1 the screen gave -16.28%.
With CN1CCN(C(=O)Cc2ccccc2)CC1 the screen gave 12.65%.

The last 6 entries again:

CCOCC(=O)Nc1cc(C(=O)NC)ccc1C read 5.378%.
COCCOCCn1nc(C)c(C#N)c1N read 75.54%.
C[C@@H]1CN(C(=O)c2ccns2)C[C@@]1(O)C1CC1 read 7.946%.
O=C(CSCCO)Nc1ccccc1F read 8.167%.
CCN1CCN(c2ccc(C(C)=O)cc2)CC1 read -16.28%.
CN1CCN(C(=O)Cc2ccccc2)CC1 read 12.65%.